Results of unrelated studies side by side (data: NIAID ChemDB).

Common to all: tests in culture; agent: Hepatitis C virus; read-out: EC50

a–b is a range or a potency band. ECn: concentration that inhibits the pathogen or its effect by n%. Neighbouring rows are from separate reports. Blank or dashed fields: not listed here.

SMILES | strain | cell line | method | value
CNC(=O)c1c(-c2ccc(F)cc2)oc2cc(N3CCCC3)c(OC)cc12 |  | Huh7 | replicon | <1 µM
CN1CCN(C(=O)C2Cc3ccccc3-c3c(C4CCCCC4)c4ccc(C(=O)NS(=O)(=O)N(C)C)cc4n3C2)CC1 |  | Huh7 | replicon | 0.01–1 µM
CC1(C)CC(=O)C2=C(C1)Nc1c(O)cccc1N(C(=O)c1ncc(F)cc1F)C2c1ccc(OCc2ccccc2)cc1F | 1b |  | luciferase / reporter gene / replicon | 0.22 µM
CNC(=O)c1c(-c2ccc(F)cc2)oc2cc(-c3cc(C4CC4)on3)c(OC(C)C)cc12 |  | Huh7 | replicon | <1 µM
CC1(C)CC(=O)C2=C(C1)Nc1c(O)cccc1N[C@H]2c1ccc(OCc2ccccc2)cc1Cl | 1b |  | luciferase / reporter gene / replicon | 5.98 µM
CCc1cc2c(C(=O)NC)c(-c3ccc(F)cc3)oc2cc1C(C)=O |  | Huh7 | replicon | <1 µM
COC(=O)N[C@H](C(=O)N1CCCC1c1ncc(-c2ccc(-c3ccc(-c4cnc([C@@H]5CC(C)CN5C(=O)[C@@H](NC(=O)CO)C(C)C)[nH]4)cc3)cc2)[nH]1)C(C)C | 1a | Lunet | luciferase | 0.0000251 µM
CC1CCC(C(=O)N(c2cc(-c3ccc(NC(=O)c4csc(N)n4)cc3)sc2C(=O)O)C(C)C)CC1 | 1b |  | replicon | <0.5 µM
NC(=S)Nc1cccc(OCCCOc2ccccc2)c1 |  | Ava5-EG(delta4AB)SEAP | reporter gene / fluorescence | 0.001–1 µM
NS(=O)(=O)c1ccc(CNc2nc(C3CC3)c3nc(-c4ccc(F)cc4)ccc3n2)cc1 |  |  | replicon | <0.1 µM
CNC(=O)c1c(-c2ccc(F)cc2)oc2cc(N)c(OC)cc12 |  | Huh7 | replicon | <10 µM
NC(=S)Nc1cccc(OCCCCCCCCc2ccccc2)c1 |  | Ava5-EG(delta4AB)SEAP | reporter gene / fluorescence | 0.001–1 µM
CCOc1nc(NCc2ccc(Cl)cc2F)nc2ccc(-c3ccc(F)cc3)nc12 |  |  | replicon | <0.1 µM
NC(=S)Nc1cccc(OCCCCCOc2ccc(-c3ccsc3)cc2)c1 |  | Ava5-EG(delta4AB)SEAP | reporter gene / fluorescence | 0.001–1 µM
O=C1C(O)CCN1c1ccc(-c2ccc3nc(NCc4ccc(F)cc4)nc(NCC(F)(F)F)c3n2)cc1 |  |  | replicon | <0.1 µM
NC(=S)Nc1ccc2c(c1)-c1ccccc1C2=O |  | Ava5-EG(delta4AB)SEAP | reporter gene / fluorescence | 0.001–1 µM
Cc1cccnc1C(=O)Nc1ccc(-c2cc(N(C(=O)C3CCC(C)CC3)C(C)C)c(C(=O)O)s2)cc1 | 1b |  | replicon | <0.5 µM
O=C1Cn2c(c(C3CCCCC3)c3ccc(C(=O)NC4(C(=O)Nc5ccc(-c6cscn6)cc5)CCCC4)cc32)-c2ccccc2N1 |  | Huh7 | replicon | 0.01–1 µM
CC1(C)CC(=O)C2=C(C1)Nc1c(O)cccc1N(C(=O)CCC(=O)N1CCN(Cc3ccccc3)CC1)C2c1ccc(OCc2ccccc2)cc1Cl | 1b |  | luciferase / reporter gene / replicon | 2.16 µM
CCOc1nc(NCc2ccc(S(N)(=O)=O)cc2)nc2ccc(-c3ccc(NC(=O)C(C)N)cc3)nc12 |  |  | replicon | <0.1 µM
Cc1cc(C(=O)Nc2ccc(-c3cc(N(CC4CC4)C(=O)C4CCC(C)CC4)c(C(=O)O)s3)cc2)nn1C | 1b |  | replicon | <0.5 µM
CNC(=O)C1Cc2ccccc2-c2c(C3CCCCC3)c3ccc(C(=O)O)cc3n2C1 |  | Huh7 | replicon | 0.01–1 µM
CCOc1nc(N)nc2ccc(-c3ccc(NC(=O)[C@H](C)N)cc3)nc12 |  | Huh7 | replicon | <0.3 µM
CC1CCC(C(=O)N(c2cc(-c3ccc(NC(=O)c4ccccc4F)cc3)sc2C(=O)O)C(C)C)CC1 | 1a |  | replicon | <0.5 µM
CN(C)S(=O)(=O)NC(=O)c1ccc2c(C3CCCCC3)c3n(c2c1)CC(C(=O)O)=Cc1ccccc1-3 |  | Huh7 | replicon | >10 µM
CC(=O)N1c2cccc(O)c2NC2=C(C(=O)CC(C)(C)C2)[C@H]1c1ccc(OCc2ccccc2)cc1Cl | 1b |  | luciferase / reporter gene / replicon | 1.25 µM
CNC(=O)c1c(-c2ccc(F)cc2)oc2cc(N(CS(C)(=O)=O)OC)c(OCc3cccc(C#N)c3)cc12 |  | Huh7 | replicon | <1 µM
CCOc1nc(NCc2cccc(Cl)c2F)nc2ccc(-c3ccc(F)cc3)nc12 |  |  | replicon | <0.1 µM
Cc1cc(-c2cc(N(C(=O)C3CCC(C)CC3)C(C)C)c(C(=O)O)s2)ncc1NC(=O)c1cscn1 | 1b |  | replicon | <0.5 µM
CNC(=O)COC(=O)N1c2cccc(O)c2NC2=C(C(=O)CC(C)(C)C2)C1c1ccc(OCc2ccccc2)cc1Cl | 1b |  | luciferase / reporter gene / replicon | 5.8 µM
CCOc1nc(NCc2ccc(CS(N)(=O)=O)cc2)nc2ccc(-c3ccc(F)cc3)nc12 |  |  | replicon | <0.1 µM
COC(=O)C1=Cc2ccccc2-c2c(C3CCCCC3)c3ccc(C(=O)NS(=O)(=O)N(C)C)cc3n2C1 |  | Huh7 | replicon | 0.01–1 µM
Fc1ccc(CNc2nc(NCC(F)(F)F)c3nc(-c4ccc(F)cc4)ccc3n2)cc1 |  |  | replicon | <0.1 µM
CN(C)S(=O)(=O)NC(=O)c1ccc2c(C3CCCCC3)c3n(c2c1)CC(C(=O)N1CCOCC1)=Cc1cccnc1-3 |  | Huh7 | replicon | 0.01–1 µM
CCOc1nc(NCc2ccc(F)cc2)nc2ccc(-c3ccc(S(N)(=O)=O)cc3)nc12 |  |  | replicon | <0.1 µM
CNC(=O)c1c(-c2ccc(F)cc2)oc2cc(-c3cnc[nH]3)c(OC)cc12 |  | Huh7 | replicon | <10 µM
CS(=O)(=O)NC(=O)c1ccc2c(C3CCCCC3)c3n(c2c1)CC(C(=O)N1CCOCC1)Cc1ccccc1-3 |  | Huh7 | replicon | 0.01–1 µM
NC(=S)Nc1cccc(OCCCCCOc2cccc3ncccc23)c1 |  | Ava5-EG(delta4AB)SEAP | reporter gene / fluorescence | 0.001–1 µM
CC(C)N(C(=O)C1=Cc2ccccc2-c2c(C3CCCCC3)c3ccc(C(=O)NS(=O)(=O)N(C)C)cc3n2C1)C(C)C |  | Huh7 | replicon | 0.01–1 µM
CNC(=O)c1c(-c2ccc(F)cc2)oc2cc(-c3nnc(C)o3)c(OC)cc12 |  | Huh7 | replicon | <10 µM

Repeating the first 4 entries:

SMILES | strain | cell line | method | value
CNC(=O)c1c(-c2ccc(F)cc2)oc2cc(N3CCCC3)c(OC)cc12 |  | Huh7 | replicon | <1 µM
CN1CCN(C(=O)C2Cc3ccccc3-c3c(C4CCCCC4)c4ccc(C(=O)NS(=O)(=O)N(C)C)cc4n3C2)CC1 |  | Huh7 | replicon | 0.01–1 µM
CC1(C)CC(=O)C2=C(C1)Nc1c(O)cccc1N(C(=O)c1ncc(F)cc1F)C2c1ccc(OCc2ccccc2)cc1F | 1b |  | luciferase / reporter gene / replicon | 0.22 µM
CNC(=O)c1c(-c2ccc(F)cc2)oc2cc(-c3cc(C4CC4)on3)c(OC(C)C)cc12 |  | Huh7 | replicon | <1 µM